Genome-wide point mutation profile of HIV-1: RT

Source: Al-Mawsawi et al. 2014 (doi:10.1186/s12977-014-0124-6), supplementary data.

Protein: RT of HIV-1 NL4-3, numbered from its first residue.
Effects on overlapping genes or RNA elements are not listed.

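Seven fragments of pNL4-3 were mutated by error-prone PCR, and each virus pool was passaged in CEM T cells. The RC index is the frequency of a change after passage round 2 divided by its frequency in the plasmid library.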

Values are the RC index; higher means better tolerated. The authors read about 0.1 or less as lethal, 0.1-0.2 as attenuated and 0.2 or more as tolerated.
Substitutions are written as wild-type residue, site number, new residue.
Input reads are the counts in the plasmid library.
An index over 1, which the authors read as above wild type, was rare (1.9% of all changes in the genome).
Base changes are numbered along pNL4-3.
Clones carried about five changes per kilobase, which can drag down the index of neutral changes.

substitution,base,input reads,RC index
I5T,T2563C,426,0.0690
E6K,G2565A,353,0.527
E6V,A2566T,643,0.0495
T7N,C2569A,304,0.0645
P9L,C2575T,934,0.0442
G15A,G2593C,43,0.297
V21D,T2611A,403,0.0635
W24R,T2619A,385,0.0554
W24C,G2621T,78,0.109
P25Q,C2623A,362,0.0942
L26M,T2625A,531,0.0281
L26S,T2626C,506,0.0295
K30N,A2639T,254,0.218
K32E,A2643G,224,0.171
K32I,A2644T,338,0.0315
I37V,A2658G,283,0.0226
T39A,A2664G,228,0.178
I47N,T2689A,332,0.0523
I50F,A2697T,348,0.0997
I50T,T2698C,271,0.0925
G51V,G2701T,279,0.117
N54S,A2710G,407,0.109
P59L,C2725T,138,0.247
A62D,C2734A,176,0.126
I63T,T2737C,150,0.0341
I63M,A2738G,99,0.103
D67Y,G2748T,96,0.106
T69A,A2754G,204,0.0417
K70I,A2758T,246,0.0415
V90F,G2817T,156,0.0327
P97S,C2838T,167,0.193
K104N,A2861T,318,0.00655
T107S,A2868T,362,0.0259
I135M,A2954G,142,0.0220
N136I,A2956T,216,0.0289
Q151H,G3002T,537,0.0996
K154T,A3010C,86,0.0802
K166Q,A3045C,153,0.0451
L168S,T3052C,321,0.0269
F171S,T3061C,294,0.0763
N175S,A3073G,257,0.0403
D177V,A3079T,297,0.0465
I178L,A3081T,412,0.0502
I178T,T3082C,189,0.119
V179D,T3085A,425,0.0446
I180V,A3087G,329,0.0629
M184T,T3100C,290,0.0476
Y188H,T3111C,162,0.0812
Q197K,C3138A,126,0.0746
T200S,A3147T,115,0.114
K201I,A3151T,407,0.0323
L205M,C3162A,75,0.0501
H208R,A3172G,268,0.0351
L209V,C3174G,77,0.0976
W212R,T3183C,335,0.0449
G213E,G3187A,137,0.658
F214S,T3190C,251,0.0449
P217T,C3198A,233,0.0807
P217L,C3199T,400,0.0564
H221R,A3211G,196,0.0671
K223R,A3217G,438,0.0343
M230V,A3237G,197,0.191
V245L,G3282T,122,0.0464
I257L,A3318T,283,0.0300
K263N,A3338T,478,0.0157
Y271C,A3361G,406,0.0185
A272E,C3364A,210,0.0572
K275E,A3372G,254,0.0709
K275T,A3373C,126,0.0476
K275R,A3373G,489,0.0184
E302D,A3455T,294,0.0108
E305V,A3463T,83,0.0191
S322P,T3513C,223,0.130
A355S,G3612T,74,0.183
I375K,T3673A,80,0.166
A376P,G3675C,35,0.303
T377S,A3678T,444,0.0478
I380V,A3687G,286,0.0742
W383C,G3698T,200,0.173
P387H,C3709A,337,0.126
L391V,T3720G,45,0.0590
I393T,T3727C,193,0.234
Q394H,A3731C,67,0.198
A400T,G3747A,493,0.0969
A400S,G3747T,142,0.0561
W401C,G3752T,126,0.0632
W406C,G3767C,38,0.279
T409S,A3774T,276,0.0288
E413D,G3788C,190,0.0279
K431R,A3841G,294,0.0372
L452F,A3905T,189,0.0290
V458I,G3921A,230,0.246
V466D,T3946A,220,0.0346
D471N,G3960A,111,0.976
D471E,C3962A,60,0.127
G490V,G4018T,110,0.207
E492G,A4024G,242,0.0707
D498N,G4041A,196,0.155
Q500H,A4049T,407,0.0374
A508T,G4071A,308,0.105
D511V,A4081T,245,0.0134
E514Q,G4089C,53,0.0928
E516D,G4097C,198,0.0662
I521L,A4110T,235,0.0558
E523K,G4116A,259,0.424
V536E,T4156A,239,0.0274
G541E,G4171A,219,0.883
G543R,G4176A,217,0.347
S553G,A4206G,449,0.0621

The opening 9 entries, copied out:

* I5T (base T2563C, input reads 426): 0.0690
* E6K (base G2565A, input reads 353): 0.527
* E6V (base A2566T, input reads 643): 0.0495
* T7N (base C2569A, input reads 304): 0.0645
* P9L (base C2575T, input reads 934): 0.0442
* G15A (base G2593C, input reads 43): 0.297
* V21D (base T2611A, input reads 403): 0.0635
* W24R (base T2619A, input reads 385): 0.0554
* W24C (base G2621T, input reads 78): 0.109